## Potato spindle tuber viroid, loop 15: variant abundance in plants

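Three N. benthamiana plants were inoculated with the whole mutant pool. Samples came from the inoculated region at 5 days, the leaf margin at 10 and upper systemic leaves at 12.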

Region: loop 15 of PSTVd (intermediate strain), upper and lower strand joined, each 5' to 3', the first 7 letters being the upper strand, closing pairs included. Wild type: GGAAACCGCUACUAC. Varied positions (N): GGAAACCGNNNNNNC.

Values are reads per thousand in the sample; higher means more abundant, 0 means not found.
Each site shows the three plants.
"Pool" is the share in the plasmid pool used as inoculum, on the same scale.
The inoculated region was read from the minus strand, the other sites from the plus strand.
Wild type was 33.9 per thousand in the pool and the most common sequence in every sample (inoculated region 202, 200, 159; leaf margin 724, 746, 710; systemic leaves 856, 883, 880).

sequence | pool | inoculated region | leaf margin | systemic leaves
GGAAACCGAAGUCCC | 0.176 | 0.0983 / 0.0803 / 0.190 | 0 / 0 / 0.0200 | 0 / 0 / 0
GGAAACCGAAGUCGC | 0.240 | 0.0983 / 0.0482 / 0.0762 | 0.0162 / 0.0223 / 0 | 0 / 0 / 0
GGAAACCGAAGUCUC | 0.208 | 0.0491 / 0.0964 / 0.0762 | 0.0162 / 0 / 0 | 0 / 0 / 0
GGAAACCGAAGUGAC | 0.256 | 0.0655 / 0.0964 / 0.0190 | 0.0162 / 0 / 0 | 0 / 0 / 0
GGAAACCGAAGUGCC | 0.128 | 0.0655 / 0.0964 / 0.0381 | 0.0647 / 0 / 0.0200 | 0 / 0 / 0
GGAAACCGAAGUGGC | 0.208 | 0.0819 / 0.129 / 0.133 | 0 / 0 / 0.0200 | 0 / 0 / 0
GGAAACCGAAGUGUC | 0.160 | 0.0655 / 0.112 / 0.152 | 0.0162 / 0 / 0.0200 | 0.0161 / 0 / 0.0228
GGAAACCGAAGUUAC | 0.256 | 0.360 / 0.273 / 0.724 | 0.146 / 0.0891 / 0.120 | 0.0483 / 0.0151 / 0
GGAAACCGAAGUUCC | 0.256 | 0.0819 / 0.0321 / 0.0952 | 0.0162 / 0.0223 / 0 | 0 / 0 / 0
GGAAACCGAAGUUGC | 0.160 | 0.0655 / 0.0482 / 0.0762 | 0.0162 / 0 / 0.0401 | 0 / 0 / 0
GGAAACCGAAGUUUC | 0.240 | 0.131 / 0.0643 / 0.0571 | 0.0162 / 0.0668 / 0.0200 | 0 / 0 / 0
GGAAACCGAAUAAAC | 0.272 | 0.180 / 0.0482 / 0.0762 | 0.0162 / 0 / 0.0401 | 0 / 0 / 0
GGAAACCGAAUAACC | 0.240 | 0.115 / 0.161 / 0.0952 | 0 / 0 / 0 | 0.0322 / 0 / 0.0228
GGAAACCGAAUAAGC | 0.256 | 0.131 / 0.241 / 0.171 | 0 / 0.0668 / 0 | 0 / 0 / 0
GGAAACCGAAUAAUC | 0.272 | 0.0491 / 0.0643 / 0.114 | 0.0323 / 0 / 0.0200 | 0 / 0 / 0
GGAAACCGAAUACAC | 0.256 | 0.377 / 0.337 / 0.305 | 0.0323 / 0 / 0.0601 | 0.0322 / 0 / 0
GGAAACCGAAUACCC | 0.160 | 0.0655 / 0.0964 / 0.0762 | 0.0162 / 0 / 0 | 0 / 0 / 0
GGAAACCGAAUACGC | 0.288 | 0.0983 / 0.145 / 0.152 | 0 / 0 / 0 | 0 / 0 / 0
GGAAACCGAAUACUC | 0.176 | 0.115 / 0.0643 / 0.114 | 0 / 0.0223 / 0.0200 | 0 / 0 / 0
GGAAACCGAAUAGAC | 0.320 | 0.0491 / 0.145 / 0.114 | 0 / 0.0223 / 0.0401 | 0.0161 / 0 / 0
GGAAACCGAAUAGCC | 0.224 | 0.0328 / 0.0803 / 0.133 | 0 / 0 / 0 | 0 / 0 / 0
GGAAACCGAAUAGGC | 0.176 | 0.115 / 0.129 / 0.0762 | 0 / 0.0223 / 0.0401 | 0 / 0 / 0
GGAAACCGAAUAGUC | 0.352 | 0.0491 / 0.161 / 0.133 | 0.0323 / 0 / 0.0200 | 0 / 0 / 0
GGAAACCGAAUAUAC | 0.272 | 0.262 / 0.337 / 0.343 | 0.129 / 0.134 / 0.180 | 0.0483 / 0 / 0
GGAAACCGAAUAUCC | 0.224 | 0.0655 / 0.0643 / 0.114 | 0 / 0 / 0 | 0 / 0 / 0
GGAAACCGAAUAUGC | 0.160 | 0.246 / 0.129 / 0.0381 | 0 / 0 / 0.0401 | 0 / 0 / 0
GGAAACCGAAUAUUC | 0.224 | 0.164 / 0.145 / 0.152 | 0 / 0.0223 / 0 | 0 / 0 / 0
GGAAACCGAAUCAAC | 0.208 | 0.0655 / 0.161 / 0.133 | 0.0162 / 0.0223 / 0 | 0 / 0 / 0
GGAAACCGAAUCACC | 0.336 | 0.0819 / 0.0803 / 0.0762 | 0.0162 / 0 / 0.0401 | 0 / 0 / 0
GGAAACCGAAUCAGC | 0.192 | 0.0983 / 0.129 / 0.0952 | 0 / 0 / 0.0401 | 0 / 0 / 0
GGAAACCGAAUCAUC | 0.224 | 0.213 / 0.241 / 0.267 | 0 / 0.0223 / 0.0401 | 0 / 0 / 0
GGAAACCGAAUCCAC | 0.192 | 0.131 / 0.0482 / 0.0571 | 0.0162 / 0.0223 / 0 | 0 / 0 / 0
GGAAACCGAAUCCCC | 0.288 | 0.0491 / 0.0803 / 0.0762 | 0 / 0 / 0.0200 | 0 / 0 / 0
GGAAACCGAAUCCGC | 0.176 | 0.180 / 0.0321 / 0.152 | 0 / 0 / 0.0200 | 0 / 0 / 0
GGAAACCGAAUCCUC | 0.256 | 0.131 / 0.145 / 0.190 | 0.0162 / 0 / 0 | 0 / 0 / 0
GGAAACCGAAUCGAC | 0.288 | 0.0655 / 0.0803 / 0.114 | 0.0162 / 0 / 0.0200 | 0 / 0 / 0
GGAAACCGAAUCGCC | 0.144 | 0.0983 / 0.0803 / 0.0381 | 0 / 0 / 0 | 0 / 0 / 0
GGAAACCGAAUCGGC | 0.224 | 0.115 / 0.0482 / 0.114 | 0 / 0 / 0 | 0 / 0 / 0
GGAAACCGAAUCGUC | 0.256 | 0.180 / 0.289 / 0.0762 | 0.0162 / 0.0223 / 0.0200 | 0 / 0 / 0
GGAAACCGAAUCUAC | 0.224 | 0.0491 / 0.0803 / 0.0571 | 0 / 0 / 0 | 0 / 0 / 0
GGAAACCGAAUCUCC | 0.224 | 0.131 / 0.0964 / 0.0762 | 0 / 0.0223 / 0.0200 | 0 / 0 / 0
GGAAACCGAAUCUGC | 0.272 | 0.0655 / 0.0643 / 0.133 | 0.0323 / 0 / 0 | 0 / 0 / 0
GGAAACCGAAUCUUC | 0.320 | 0.262 / 0.161 / 0.152 | 0 / 0.0223 / 0.0200 | 0.0161 / 0 / 0
GGAAACCGAAUGAAC | 0.272 | 0.213 / 0.0964 / 0.171 | 0.0162 / 0 / 0 | 0 / 0 / 0
GGAAACCGAAUGACC | 0.176 | 0.0983 / 0.145 / 0.0762 | 0 / 0 / 0 | 0 / 0 / 0
GGAAACCGAAUGAGC | 0.288 | 0.164 / 0.129 / 0.114 | 0.0162 / 0 / 0 | 0.0161 / 0 / 0
GGAAACCGAAUGAUC | 0.256 | 0.262 / 0.145 / 0.228 | 0 / 0 / 0.0200 | 0 / 0 / 0
GGAAACCGAAUGCAC | 0.304 | 0.0491 / 0.0803 / 0.133 | 0 / 0 / 0 | 0 / 0 / 0
GGAAACCGAAUGCCC | 0.176 | 0.0491 / 0.0643 / 0.0762 | 0 / 0 / 0.0200 | 0.0161 / 0 / 0
GGAAACCGAAUGCGC | 0.256 | 0.131 / 0.145 / 0.0762 | 0.0162 / 0 / 0.0200 | 0 / 0 / 0
GGAAACCGAAUGCUC | 0.176 | 0.0983 / 0.145 / 0.114 | 0.0162 / 0 / 0.0401 | 0.0161 / 0 / 0
GGAAACCGAAUGGAC | 0.288 | 0.0983 / 0.0964 / 0.0762 | 0 / 0 / 0 | 0.0161 / 0 / 0
GGAAACCGAAUGGCC | 0.256 | 0.0655 / 0.112 / 0.190 | 0.0162 / 0 / 0 | 0 / 0 / 0
GGAAACCGAAUGGGC | 0.208 | 0.0328 / 0.145 / 0.171 | 0.0162 / 0.0668 / 0.0200 | 0 / 0 / 0
GGAAACCGAAUGGUC | 0.240 | 0.0819 / 0.0803 / 0.114 | 0.0323 / 0.0223 / 0.0401 | 0.0322 / 0 / 0
GGAAACCGAAUGUAC | 0.256 | 0.360 / 0.289 / 0.343 | 0.129 / 0.0223 / 0.180 | 0.0322 / 0.0303 / 0.137
GGAAACCGAAUGUCC | 0.192 | 0.0491 / 0.0803 / 0.0571 | 0 / 0.0223 / 0 | 0 / 0 / 0
GGAAACCGAAUGUGC | 0.272 | 0.147 / 0.161 / 0.209 | 0.0162 / 0 / 0.0200 | 0 / 0 / 0
GGAAACCGAAUGUUC | 0.256 | 0.459 / 0.337 / 0.228 | 0.243 / 0.0445 / 0.140 | 0.0483 / 0 / 0
GGAAACCGAAUUAAC | 0.112 | 0.0983 / 0.177 / 0.114 | 0.0162 / 0.0223 / 0 | 0 / 0 / 0
GGAAACCGAAUUACC | 0.240 | 0.164 / 0.0482 / 0.0762 | 0.0162 / 0.0223 / 0.0200 | 0 / 0 / 0
GGAAACCGAAUUAGC | 0.272 | 0.0491 / 0.112 / 0.171 | 0 / 0 / 0 | 0 / 0 / 0
GGAAACCGAAUUAUC | 0.240 | 0.131 / 0.0803 / 0.0571 | 0.0162 / 0 / 0.0200 | 0 / 0 / 0
GGAAACCGAAUUCAC | 0.112 | 0.0819 / 0.0643 / 0.133 | 0 / 0 / 0.0401 | 0 / 0 / 0.0228
GGAAACCGAAUUCCC | 0.320 | 0.0655 / 0.145 / 0.152 | 0 / 0 / 0.0401 | 0 / 0 / 0
GGAAACCGAAUUCGC | 0.240 | 0.0491 / 0.0803 / 0.114 | 0 / 0 / 0.0401 | 0 / 0 / 0
GGAAACCGAAUUCUC | 0.160 | 0.0983 / 0.145 / 0.0762 | 0 / 0 / 0.0200 | 0.0161 / 0.0151 / 0
GGAAACCGAAUUGAC | 0.224 | 0.0328 / 0.0643 / 0.133 | 0.0162 / 0.0223 / 0 | 0 / 0 / 0

Extract of 5 entries:

sequence	pool	inoculated region	leaf margin	systemic leaves
GGAAACCGAAUUCGC	0.240	0.0491 / 0.0803 / 0.114	0 / 0 / 0.0401	0 / 0 / 0
GGAAACCGAAUAAGC	0.256	0.131 / 0.241 / 0.171	0 / 0.0668 / 0	0 / 0 / 0
GGAAACCGAAUCCAC	0.192	0.131 / 0.0482 / 0.0571	0.0162 / 0.0223 / 0	0 / 0 / 0
GGAAACCGAAUUCAC	0.112	0.0819 / 0.0643 / 0.133	0 / 0 / 0.0401	0 / 0 / 0.0228
GGAAACCGAAGUCCC	0.176	0.0983 / 0.0803 / 0.190	0 / 0 / 0.0200	0 / 0 / 0

Sequences that differ at fixed positions probably stem from PCR or sequencing errors, and defective variants can be carried along by functional ones.
With 43,870-66,106 reads a sample, very low values are single reads.

From the data files of Wu et al. 2024, doi:10.1371/journal.ppat.1012142.